Pooled drug test results. Numbers come from NIAID ChemDB, via PubChem.

All rows: tests in culture; agent: Mycobacterium avium complex; measure: MIC90

Two numbers with a dash give a range or band. Blank or dashed fields: not listed here. MIC50, MIC90 and the like: level of inhibition, or share of isolates inhibited. Lines come from different laboratories, so protocols vary.

structure | strain or isolate | value
Cn1nnnc1SCC1=C(C(=O)O)N2C(=O)[C@@H](NC(=O)[C@H](O)c3ccccc3)[C@H]2SC1 |  | 54.7 µg/mL
CC(C)N1CCN(c2c(F)cc3c(=O)c(C(=O)O)cn(C4CC4)c3c2F)CC1 | 14 strains | 8 µg/mL
CC(=O)OCC1=C(C(=O)O)N2C(=O)[C@@H](NC(=O)CSc3ccncc3)[C@H]2SC1 |  | 58 µg/mL
O=C(O)c1cn(C2CC2)c2c(F)c(N3CCC(N4CCCC4)C3)c(F)cc2c1=O |  | 4 µg/mL
CC(=O)NC[C@H]1CN(c2ccc(-c3ccc(-c4nnnn4C)nc3)c(F)c2)C(=O)O1 | 13 isolates | 8 µg/mL
O=C(O)c1cn(C2CC2)c2c(Cl)c(N3C[C@@H]4CCCN[C@@H]4C3)c(F)cc2c1=O |  | 8 µg/mL
CN[C@@H]1[C@@H](O)[C@@H](O[C@@H]2[C@@H](O)[C@H](O[C@H]3O[C@H](CN)CC[C@H]3N)[C@@H](N)C[C@H]2N)OC[C@]1(C)O | 25 isolates | >64 µg/mL
CO[C@H]1/C=C/O[C@@]2(C)Oc3c(C)c(O)c4c(O)c(c(/C=N/N5CCN(C)CC5)c(O)c4c3C2=O)NC(=O)/C(C)=C\C=C\[C@H](C)[C@H](O)[C@@H](C)[C@@H](O)[C@@H](C)[C@H](OC(C)=O)[C@@H]1C | 26 isolates (HIV+) | 2 µg/mL
C[C@@H]1CN(c2c(F)c(N)c3c(=O)c(C(=O)O)cn(C4CC4)c3c2F)C[C@H](C)N1 | 12 strains | 1 µg/mL
CO[C@H]1/C=C/O[C@@]2(C)Oc3c(C)c(O)c4c(O)c(c5c(c4c3C2=O)NC2(CCN(CC(C)C)CC2)N=5)=NC(=O)/C(C)=C\C=C\[C@H](C)[C@H](O)[C@@H](C)[C@@H](O)[C@@H](C)[C@H](OC(C)=O)[C@@H]1C | 20 strains | 5 µg/mL
C[C@@H]1CN(c2nc3c(cc2F)c(=O)c(C(=O)O)cn3C(C)(C)C)C[C@H](C)N1 | 14 strains | 2 µg/mL
C[C@@H]1CN(c2c(F)c(N)c3c(=O)c(C(=O)O)cn(C4CC4)c3c2F)C[C@H](C)N1 | 35 strains | ≤0.5 µg/mL
CC(C)N1CCN(c2nc3c(cc2F)c(=O)c(C(=O)O)cn3C2CC2)CC1 | 14 strains | 16 µg/mL
CN1CCN(CCCN=c2cc3n(-c4ccc(Cl)cc4)c4ccccc4nc-3cc2Nc2ccccc2)CC1 | 10 srtains | 2 µg/mL
CC1CN(c2c(F)cc3c(=O)c(C(=O)O)cn(C4CC4)c3c2F)CC(C)N1 |  | 2 µg/mL
CCn1cc(C(=O)O)c(=O)c2cc(F)c(N3CCNCC3)nc21 | 16 isolates | 100 µg/mL
CCC(C)N1CCN(c2cc(=O)c3nc4c(oc3c2)c2c(=O)c3c(O)c(C)c5c(c34)=C(O)[C@@](C)(O/C=C/[C@H](OC)[C@@H](C)[C@@H](OC(C)=O)[C@H](C)[C@H](O)[C@H](C)[C@@H](O)[C@@H](C)/C=C/C=C(/C)C(=O)N2)O5)CC1 | 20 strains | 0.3 µg/mL
CCC(C)N1CCN(c2cc(=O)c3nc4c(oc3c2)c2c(=O)c3c(O)c(C)c5c(c34)=C(O)[C@@](C)(O/C=C/[C@H](OC)[C@@H](C)[C@@H](OC(C)=O)[C@H](C)[C@H](O)[C@H](C)[C@@H](O)[C@@H](C)/C=C/C=C(/C)C(=O)N2)O5)CC1 | 20 strains | 0.3 µg/mL
CN[C@@H]1[C@H](O)[C@H](NC)[C@H]2O[C@@]3(O)C(=O)C[C@@H](C)O[C@H]3O[C@@H]2[C@H]1O | 25 isolates | >64 µg/mL
COc1c(N2CCNC(C)C2)c(F)cc2c(=O)c(C(=O)O)cn(C3CC3)c12 | 20 strains | 6.25 µg/mL
Cc1noc(NS(=O)(=O)c2ccc(N)cc2)c1C | 20 strains | 20 µg/mL
Nc1ccn([C@@H]2O[C@H](CO)[C@@H](O)[C@@H]2O)c(=O)n1 | 32 isolates | >128 µg/mL
N[C@@H]1CN(c2c(F)cc3c(=O)c(C(=O)O)cn([C@@H]4C[C@@H]4F)c3c2Cl)CC12CC2 |  | 8 µg/mL
CCn1cc(C(=O)O)c(=O)c2cc(F)c(N3CCNC(C)C3)c(F)c21 | 16 isolates | 50 µg/mL
CC[C@H]1OC(=O)[C@H](C)C(=O)[C@H](C)[C@@H](O[C@@H]2O[C@H](C)C[C@H](N(C)C)[C@H]2O)[C@](C)(OC)C[C@@H](C)C(=O)[C@H](C)[C@H]2N(CCCCn3cnc(-c4cccnc4)c3)C(=O)O[C@]12C | 24 isolates (HIV+) | 128 µg/mL
Clc1ccc(Nc2cc3nc4ccccc4n(-c4ccc(Cl)cc4)c-3cc2=NC2CCCC2)cc1 |  | 0.21 µg/mL
CO[C@H]1/C=C/O[C@@]2(C)Oc3c(C)c(O)c4c(O)c(c(/C=N/N5CCN(C)CC5)c(O)c4c3C2=O)NC(=O)/C(C)=C\C=C\[C@H](C)[C@H](O)[C@@H](C)[C@@H](O)[C@@H](C)[C@H](OC(C)=O)[C@@H]1C | 52 strains | 50 µg/mL
NC1[C@H]2CN(c3nc4c(cc3F)c(=O)c(C(=O)O)cn4-c3ccc(F)cc3F)C[C@@H]12 | 22 strains | >256 µg/mL
CCN=c1cc2n(-c3ccc(Cl)cc3)c3ccccc3nc-2cc1Nc1ccc(Cl)cc1 |  | 0.12 µg/mL
CCNC(C)C1CCN(c2c(F)cc3c(=O)c(C(=O)O)cn(C4CC4)c3c2OC)C1 |  | 8 µg/mL
NNC(=O)c1ccncc1 | 20 strains | 12.5 µg/mL
CCNCC1CCN(c2c(F)cc3c(=O)c(C(=O)O)cn(CC)c3c2F)C1 |  | 25.3 µg/mL
CO[C@H]1/C=C/O[C@@]2(C)Oc3c(C)c(O)c4c(=O)c(c5oc6cc(N7CCN(C(C)C)CC7)cc(=O)c6nc5c4c3=C2O)NC(=O)/C(C)=C\C=C\[C@H](C)[C@H](O)[C@@H](C)[C@@H](O)[C@@H](C)[C@H](OC(C)=O)[C@@H]1C | 20 strains | 0.07–0.3 µg/mL
COC1CCN(c2c(F)cc3c(=O)c(C(=O)O)cn(C4CC4)c3c2F)C1 |  | 4 µg/mL
CO[C@H]1/C=C/O[C@@]2(C)Oc3c(C)c(O)c4c(O)c(c5c(c4c3C2=O)NC2(CCN(CC(C)C)CC2)N=5)=NC(=O)/C(C)=C\C=C\[C@H](C)[C@H](O)[C@@H](C)[C@@H](O)[C@@H](C)[C@H](OC(C)=O)[C@@H]1C | 32 isolates | 2 µg/mL
CNn1cc(C(=O)O)c(=O)c2cc(F)c(N3CCN(C)CC3)cc21 | 19 strains | >25 µg/mL
CCn1cc(C(=O)O)c(=O)c2cc(F)c(N3CCNCC3)cc21 |  | >16 µg/mL
CC1COc2c(N3CCN(C)CC3)c(F)cc3c(=O)c(C(=O)O)cn1c23 | 20 strains | 3.13–6.25 µg/mL
CC[C@H]1OC(=O)[C@H](C)[C@@H](O[C@H]2C[C@@](C)(OC)[C@@H](O)[C@H](C)O2)[C@H](C)[C@@H](O[C@@H]2O[C@H](C)C[C@H](N(C)C)[C@H]2O)[C@](C)(OC)C[C@@H](C)C(=O)[C@H](C)[C@@H](O)[C@]1(C)O | 28 strains | 4 µg/mL
C[C@@H]1CN(c2c(F)c(N)c3c(=O)c(C(=O)O)cn(C4CC4)c3c2F)C[C@H](C)N1 |  | 2–4 µg/mL
CC(C)N=c1cc2n(-c3ccc(Cl)cc3)c3ccccc3nc-2cc1Nc1ccc(Cl)cc1 | 32 isolates | 2 µg/mL
CC(C)N=c1cc2n(-c3ccccc3)c3ccccc3nc-2cc1Nc1ccc(Cl)cc1 |  | 0.17 µg/mL
NC1CCN(c2nc3c(cc2F)c(=O)c(C(=O)O)cn3-c2ccc(F)cc2F)C1 | 25 isolates | >8 µg/mL
CN1CC2CCC1CN2c1c(F)cc2c(=O)c(C(=O)O)cn(C3CC3)c2c1F |  | 8 µg/mL
C[C@H]1COc2c(N3CCN(C)CC3)c(F)cc3c(=O)c(C(=O)O)cn1c23 | 20 strains | 25 µg/mL
CC(C)N1CCN(c2cc3c(cc2F)c(=O)c(C(=O)O)cn3C2CC2)CC1 | 14 strains | 8 µg/mL
CC1COc2c(N3CCN(C)CC3)c(F)cc3c(=O)c(C(=O)O)cn1c23 | 16 isolates | 25 µg/mL
CCC1CN(c2cc3c(cc2F)c(=O)c(C(=O)O)cn3C(C)(C)C)CCN1 | 14 strains | 4 µg/mL
Cc1cc(=O)c(C(=O)NC(C(=O)N[C@@H]2C(=O)N3C(C(=O)O)=C(CSc4nnnn4C)CS[C@H]23)c2ccc(O)cc2)c[nH]1 |  | 52.3 µg/mL
C[C@@H]1CN(c2c(F)c(N)c3c(=O)c(C(=O)O)cn(C4CC4)c3c2F)C[C@H](C)N1 |  | 4–16 µg/mL
N[C@@H]1CN(c2c(F)cc3c(=O)c(C(=O)O)cn([C@@H]4C[C@@H]4F)c3c2Cl)CC12CC2 | 20 strains | 6.25 µg/mL
CCCCCCCCCCCCOC(=O)c1cc(O)c(O)c(O)c1 | 32 isolates | >128 µg/mL
C[C@@H]1CN(c2c(F)c(N)c3c(=O)c(C(=O)O)cn(C4CC4)c3c2F)C[C@H](C)N1 | 20 strains | 1.56 µg/mL
CC1COc2c(N3CCN(C)CC3)c(F)cc3c(=O)c(C(=O)O)cn1c23 | 101 isolates | 16 µg/mL
CCn1cc(C(=O)O)c(=O)c2cc(F)c(N3CCNCC3)cc21 | 16 isolates | 100 µg/mL

Repeating the first 6 entries:

structure	strain or isolate	value
Cn1nnnc1SCC1=C(C(=O)O)N2C(=O)[C@@H](NC(=O)[C@H](O)c3ccccc3)[C@H]2SC1		54.7 µg/mL
CC(C)N1CCN(c2c(F)cc3c(=O)c(C(=O)O)cn(C4CC4)c3c2F)CC1	14 strains	8 µg/mL
CC(=O)OCC1=C(C(=O)O)N2C(=O)[C@@H](NC(=O)CSc3ccncc3)[C@H]2SC1		58 µg/mL
O=C(O)c1cn(C2CC2)c2c(F)c(N3CCC(N4CCCC4)C3)c(F)cc2c1=O		4 µg/mL
CC(=O)NC[C@H]1CN(c2ccc(-c3ccc(-c4nnnn4C)nc3)c(F)c2)C(=O)O1	13 isolates	8 µg/mL
O=C(O)c1cn(C2CC2)c2c(Cl)c(N3C[C@@H]4CCCN[C@@H]4C3)c(F)cc2c1=O		8 µg/mL